Pooled drug test results. Numbers come from NIAID ChemDB, via PubChem.

All rows: whole-cell or culture tests; organism: Mycobacterium avium intracellulare; endpoint: MIC

Blank or dashed fields: not listed here.

{"smiles": "NC[C@H]1O[C@H](O[C@H]2[C@H](O)[C@@H](O[C@H]3O[C@H](CO)[C@@H](O)[C@H](N)[C@H]3O)[C@H](N)C[C@@H]2N)[C@H](O)[C@@H](O)[C@@H]1O", "strain": "N-752 (HIV-)", "value": "0.5 µg/mL"}
{"smiles": "CO[C@H]1/C=C/O[C@@]2(C)Oc3c(C)c(O)c4c(O)c(c(/C=N/N5CCN(C)CC5)c(O)c4c3C2=O)NC(=O)/C(C)=C\\C=C\\[C@H](C)[C@H](O)[C@@H](C)[C@@H](O)[C@@H](C)[C@H](OC(C)=O)[C@@H]1C", "strain": "ATCC 13950", "value": "0.5 µg/mL"}
{"smiles": "CO[C@H]1/C=C/O[C@@]2(C)Oc3c(C)c(O)c4c(=O)c(c5oc6cc(N7CCN(CC(C)C)CC7)cc(=O)c6nc5c4c3=C2O)NC(=O)/C(C)=C\\C=C\\[C@H](C)[C@H](O)[C@@H](C)[C@@H](O)[C@@H](C)[C@H](OC(C)=O)[C@@H]1C", "strain": "N-260", "value": "0.06 µg/mL"}
{"smiles": "CC1COc2c(N3CCN(C)CC3)c(F)cc3c(=O)c(C(=O)O)cn1c23", "value": "4 µg/mL"}
{"smiles": "CC1CN(c2cc3c(cc2F)c(=O)c(C(=O)O)cn3-c2ccc(F)cc2F)CCN1", "strain": "ATCC 13950", "value": "4 µg/mL"}
{"smiles": "CCn1nc(C(=O)O)c(=O)c2cc3c(cc21)OCO3", "value": "486.3 µg/mL"}
{"smiles": "NCC[C@H](O)C(=O)N[C@@H]1C[C@H](N)[C@@H](O[C@H]2O[C@H](CN)[C@@H](O)[C@H](O)[C@H]2O)[C@H](O)[C@H]1O[C@H]1O[C@H](CO)[C@@H](O)[C@H](N)[C@H]1O", "value": "4 µg/mL"}
{"smiles": "O=C1c2nc3ccccc3c3ccnc(c23)C2C=CC=CC12", "value": "0.39 µg/mL"}
{"smiles": "CO[C@H]1/C=C/O[C@@]2(C)Oc3c(C)c(O)c4c(O)c(c(/C=N/N5CCN(C)CC5)c(O)c4c3C2=O)NC(=O)/C(C)=C\\C=C\\[C@H](C)[C@H](O)[C@@H](C)[C@@H](O)[C@@H](C)[C@H](OC(C)=O)[C@@H]1C", "strain": "CIPT 140310023", "value": "0.5 µg/mL"}
{"smiles": "CO[C@H]1/C=C/O[C@@]2(C)Oc3c(C)c(O)c4c(O)c(c5c(c4c3C2=O)NC2(CCN(CC(C)C)CC2)N=5)=NC(=O)/C(C)=C\\C=C\\[C@H](CO)[C@H](O)[C@@H](C)[C@@H](O)[C@@H](C)[C@H](OC(C)=O)[C@@H]1C", "strain": "CDC2", "value": "1.25 µg/mL"}
{"smiles": "CC1CN(c2cc3c(cc2F)c(=O)c(C(=O)O)cn3-c2ccc(F)cc2F)CCN1", "value": "1 µg/mL"}
{"smiles": "NNC(=O)c1ccncc1", "value": "8 µg/mL"}
{"smiles": "CCn1cc(C(=O)O)c(=O)c2cc(F)c(N3CCNC(C)C3)c(F)c21", "value": "4.9 µg/mL"}
{"smiles": "NC[C@H]1O[C@H](O[C@H]2[C@H](O)[C@@H](O[C@H]3O[C@H](CO)[C@@H](O)[C@H](N)[C@H]3O)[C@H](N)C[C@@H]2N)[C@H](O)[C@@H](O)[C@@H]1O", "value": ">32 µg/mL"}

For reference, 2 entries again:

smiles	strain	value
CO[C@H]1/C=C/O[C@@]2(C)Oc3c(C)c(O)c4c(=O)c(c5oc6cc(N7CCN(CC(C)C)CC7)cc(=O)c6nc5c4c3=C2O)NC(=O)/C(C)=C\C=C\[C@H](C)[C@H](O)[C@@H](C)[C@@H](O)[C@@H](C)[C@H](OC(C)=O)[C@@H]1C	N-260	0.06 µg/mL
NNC(=O)c1ccncc1		8 µg/mL

Conditions beyond the fields shown may differ between rows.